Anti-infective test results gathered from many reports (values: NIAID ChemDB through PubChem).

Shared fields: cytotoxicity tests; cells: MT-4; endpoint: CC50

Conditions beyond the fields shown may differ between rows. Two numbers with a dash give a range or band. CCn is the concentration with n% toxicity to the cells. An empty or dashed field is not shown.

smiles | read by | value
CNc1ncnc2c1ncn2[C@H]1CC[C@@H](CO)O1 | - | 156.3 µM
Nc1ccn([C@H]2CC[C@@H](CO)O2)c(=O)n1 | - | 232 µM
CC(C)c1nc(CN(C)C(=O)N[C@H](C(=O)N[C@@H](Cc2ccccc2)C[C@H](O)[C@H](Cc2ccccc2)NC(=O)OCc2cncs2)C(C)C)cs1 | - | 441.6 µg/mL
O=C(N[C@@H](Cc1ccccc1)C[C@H](O)[C@H](Cc1ccccc1)NC(=O)OCc1ccccc1)OCc1ccccc1 | - | >100 µM
COC(=O)[C@H](CO)NC(=O)CNC(=O)COc1ccc2ccccc2c1 | MTT | 58 µg/mL
O=[N+]([O-])c1ccc(-c2nnc(-c3cccnc3)o2)cc1 | MTT | 73.5 µg/mL
O=C1CSC(c2c(Cl)cccc2Cl)N1c1ccccn1 | MTT | >38.5 µM
CC(C)=CCC(Cc1c(O)cc(O)c2c1O[C@H](c1ccc(O)cc1O)CC2=O)C(=O)O | - | 23 µg/mL
N#Cc1c(N)cccc1S(=O)(=O)c1cccc(C(F)(F)F)c1 | - | >200 µM
C=CC(C)(C)c1cc([C@@H]2COc3c(ccc4c3C=CC(C)(C)O4)C2)c(O)cc1O | - | 9 µg/mL
Nc1ccn([C@H]2CC[C@@H](CO)O2)c(=O)n1 | - | 219–753 µM
Cc1[nH]c2ccccc2c1CC(=O)NC(Cc1ccccc1)C(=O)N(C)c1ccccc1 | MTT | 70 µM
O=C1C=C2C=C[C@@H]3C[C@@]2(O1)[C@H]1CCCCN31 | MTT / absorbance | >100 µM
Nc1ncnc2c1ncn2C=C1CC1CO | - | 79.8 µM
Nc1nc(N)c2ncn([C@H]3CC[C@@H](CO)O3)c2n1 | - | 170.5 µM
CC(C)OP(=O)(COC[C@H]1C[C@@]1(c1ccccc1)n1cnc2c(N)ncnc21)OC(C)C | - | >100 µM
O=C(/C=C/c1cn([C@H]2C=C[C@@H](CO)O2)c(=O)[nH]c1=O)NCCCCCCNC(=O)C(F)(F)F | - | >100 µM
CC1(C)CCc2c(O)ccc([C@@H]3COc4cc(O)ccc4C3)c2O1 | - | 87 µg/mL
CC(C)Nc1cccnc1N1CCN(C(=O)c2c[nH]c(-c3ccccc3NS(C)(=O)=O)c2)CC1 | - | 22 µM
C/C=C(\C)C(=O)O[C@H]1[C@H](OC(=O)CC)[C@@]23C(CC1(C)C)[C@]1(CCC4[C@@]5(C)CC[C@H](O[C@@H]6O[C@H](CO)[C@@H](O)[C@H](O[C@@H]7O[C@H](CO)[C@H](O)[C@H](O)[C@H]7O[C@@H]7O[C@@H](C)[C@H](O)[C@@H](O)[C@H]7O)[C@H]6O[C@@H]6O[C@H](CO)[C@H](O)[C@H](O)[C@H]6O)C(C)(C)C5CC[C@@]4(C)[C@]1(C)C[C@H]2O)O[C@@H]3O | MTT | <15 µg/mL
Cc1c(O)cccc1C(=O)N[C@@H](CSc1ccccc1)[C@H](O)CN1C[C@H]2CCCC[C@H]2C[C@H]1C(=O)NC(C)(C)C | - | 4.6 µg/mL
Cc1cc(/C=C/c2ccccc2)cc(C)c1Oc1ccnc(Nc2ccc(C#N)cc2)n1 | MTT | 18.5 µM
Cc1cn([C@]2(c3ccccc3)C[C@@H]2CO)c(=O)[nH]c1=O | - | >100 µM
Cc1cc(C#Cc2ccccc2N)cc(C)c1Oc1ccnc(Nc2ccc(C#N)cc2)n1 | MTT | 8.883 µM
C#C[C@@]1(CO)C=C[C@H](n2cc(C)c(=O)[nH]c2=O)S1 | MTT | >100 µM
COc1cc2occ(-c3ccc(O)cc3)c(=O)c2c(O)c1CC=C(C)C | - | 28 µg/mL
CC(C)=CCc1c(O)cc(O)c2c1O[C@H](c1cc3c(cc1O)O[C@@H](c1ccc(O)cc1)[C@@H]3c1cc(O)cc(O)c1)CC2=O | - | 66 µg/mL
COc1ncnc2c1ncn2[C@H]1CC[C@@H](CO)O1 | - | 179.2 µM
COc1c(CC=C(C)C)c(O)cc2oc(=O)c(-c3ccc(O)cc3O)cc12 | - | 13 µg/mL
O=c1ccn([C@]2(c3ccccc3)C[C@@H]2CO)c(=O)[nH]1 | - | >100 µM
CC(=O)Oc1ccc(/C=C/C(=O)O[C@@H](C(=O)O)[C@@H](OC(=O)/C=C/c2ccc(OC(C)=O)c(OC(C)=O)c2)C(=O)O)cc1OC(C)=O | - | 47.1 µM
CC(C)(C)NC(=O)[C@@H]1CN(Cc2cccnc2)CCN1C[C@@H](O)C[C@@H](Cc1ccccc1)C(=O)N[C@H]1c2ccccc2C[C@H]1O | - | >100 µg/mL
Cc1cc(C#Cc2cccc(N)c2)cc(C)c1Oc1ccnc(NC2CCN(Cc3cccc(C(N)=O)c3)CC2)n1 | MTT | 0.63 µM
CCCCc1c(Cc2cccc3ccccc23)nc(N(CC)CC)[nH]c1=O | MTT | 258 µM
Cc1cn([C@]2(c3ccccc3)C[C@@H]2COCP(=O)(OC(C)C)OC(C)C)c(=O)[nH]c1=O | - | >100 µM
Cc1c(Cc2cccc3ccccc23)nc(NC2CCCCC2)[nH]c1=O | MTT | 40.21 µM
Cc1cc(Cl)cc(S(=O)(=O)c2cccc(N)c2C#N)c1 | - | 133 µM
O=C1C[C@@H](c2ccccc2)Oc2cc(O)cc(O)c21 | - | >100 µg/mL
Nc1ncnc2c1ncn2C=C=CCO | - | >200 µM
CC(C)Nc1cccnc1N1CCN(C(=O)c2cc3cc(NS(C)(=O)=O)ccc3[nH]2)CC1 | - | 21 µg/mL
CC(C)=CCN1Cc2cc(Cl)cc3[nH]c(=S)n(c23)C[C@@H]1C | - | 31 µM
c1ccc(-c2cc(CN3CCCNCCNCCCNCC3)cc(CN3CCCNCCNCCCNCC3)n2)cc1 | MTT | >250 µg/mL
CC(C)Nc1cccnc1N1CCN(C(=O)c2cc3cc(NS(C)(=O)=O)ccc3[nH]2)CC1 | MTT | >3.83 µM
Nc1ncnc2c1ncn2[C@@H]1O[C@H](CO)[C@H]1CO | - | 63.7 µM
CC(C)Nc1cccnc1N1CCN(C(=O)c2cc3cc(NS(C)(=O)=O)ccc3[nH]2)CC1 | MTT | >43.81 µM
Nc1ccn([C@H]2CC[C@@H](CO)O2)c(=O)n1 | - | 475 µg/mL
Cc1c(Cc2cccc3ccccc23)nc(NCc2ccccc2)[nH]c1=O | MTT | 35.03 µM
O=C(c1ccccc1)c1ccc2nc3n(c2c1)C(c1c(F)cccc1F)SC3 | - | 1.3 µM
Nc1ccc(O[C@H]2O[C@H](CO)[C@@H](O)[C@H](O)[C@@H]2O)cc1 | - | >923 µM
Fc1cc2nc3n(c2cc1F)C(c1c(Cl)cccc1Cl)SC3 | - | 17.6 µM
C=CCN1Cc2cccc3[nH]c(=O)n(c23)CC1C | - | 612 µM
Cc1ccc(-c2ccc3c(c2)C=C(C(=O)Nc2ccc(C[N+](C)(C)C4CCOCC4)cc2)CCC3)cc1 | MTT | >0.2 µg/mL
COC(=O)[C@H](C)NC(=O)CNC(=O)COc1ccc2ccccc2c1 | MTT | 59 µg/mL
O=C1CSC(c2c(F)cccc2F)N1c1cccnc1 | MTT | 427 µM
CCCCN(CCCC)c1nc(Cc2cccc3ccccc23)c(C)c(=O)[nH]1 | MTT | >331 µM
O=C1CCC(c2ccccc2)C(=O)N1CCCCN1CCN(c2ccccc2)CC1 | MTT | 74 µM
O=C1CSC(c2c(Cl)cccc2Cl)N1c1cccnc1 | MTT | >23.4 µM
Cc1c(Cc2cccc3ccccc23)nc(NC(C)C)[nH]c1=O | MTT | 54 µM
CCCOc1cc(C)cc(S(=O)(=O)c2cccc(N)c2C#N)c1 | - | 9 µM
c1cc(CN2CCCNCCNCCCNCC2)nc(CN2CCCNCCNCCCNCC2)c1 | MTT | >500 µg/mL
COc1ccccc1N1CCN(CCCN2C(=O)CCC(c3ccccc3)C2=O)CC1 | MTT | >100 µM
Cc1cn([C@H]2C[C@H](N=[N+]=[N-])[C@@H](CO)O2)c(=O)[nH]c1=O | - | >10 µM
Fc1ccc2nc3n(c2c1)C(c1c(F)cccc1F)SC3 | - | 162 µM
O=C1CCC(c2ccccc2)C(=O)N1CCCN1CCN(c2ccccc2O)CC1 | MTT | >100 µM
CC(C)[C@H](NS(=O)(=O)CCc1ccccn1)C(=O)N[C@@H](Cc1ccccc1)C(=O)C(F)(F)[C@H](Cc1ccccc1)NC(=O)[C@@H](NS(=O)(=O)CCc1ccccn1)C(C)C | - | 42 µM
CC(Cc1ccc(O)c(O)c1)C(C)Cc1ccc(O)c(O)c1 | - | >10 µM
CC(C)Nc1cccnc1N1CCN(C(=O)c2ccc(-c3ccccc3)[nH]2)CC1 | - | 26 µM
COc1ccc2nc3n(c2c1)C(c1c(Cl)cccc1Cl)SC3 | - | 292 µM
c1ccc(C2OCc3nc4ccccc4n32)cc1 | - | 32.2 µM
CCN(CC)c1nc(Cc2cccc3ccccc23)cc(=O)[nH]1 | MTT | ≥72.22 µM
Cc1ccnc(N2C(=O)CSC2c2c(F)cccc2Cl)c1 | MTT | >33.9 µM
Fc1cccc(F)c1C1SCc2nc3ccccc3n21 | - | 49 µM
O=[N+]([O-])c1ccccc1S(=O)(=O)c1ccccc1 | - | >200 µM
Fc1cccc(Cl)c1C1SCc2nc3cc(C(F)(F)F)ccc3n21 | - | >335 µM
Cc1c(Sc2ccccc2)n(COCCO)c(=O)[nH]c1=O | - | 74 µM
CC(C)[C@H](NC(=O)OCc1ccccn1)C(=O)N[C@@H](Cc1ccccc1)C(=O)C(F)(F)[C@H](Cc1ccccc1)NC(=O)[C@@H](NC(=O)OCc1ccccn1)C(C)C | - | >100 µM
C1CNCCNCCCN[C@@H]([C@H]2CNCCCNCCNCCCN2)CNC1 | - | 200 µg/mL
Cc1ccnc2c1NC(=O)c1cccnc1N2C1CC1 | MTT | >15.02 µM
CC(C)Nc1cccnc1N1CCN(C(=O)c2c[nH]c(-c3ccc(NS(C)(=O)=O)cc3)c2)CC1 | - | 24 µM
CCCCOc1cc(C)cc(S(=O)(=O)c2cccc(N)c2C#N)c1 | - | 11 µM
Cc1cc(C#N)cc(C)c1Oc1nc(Nc2ccc(C#N)cc2)nc(N)c1Br | MTT | 2.2 µM
COc1cc([C@H]2c3c(cc(OC)c(OC)c3OC)C[C@@H](C)[C@@H]2C)cc(C)c1OC | - | 34 µM
Cc1cn([C@H]2C[C@H](N=[N+]=[N-])[C@@H](CO)O2)c(=O)[nH]c1=O | MTT | >46 µM
Cc1cc(C#Cc2cccnc2)cc(C)c1Oc1ccnc(Nc2ccc(C#N)cc2)n1 | MTT | 3.476 µM
COC(=O)[C@H](CCSC)NC(=O)[C@H](C)NC(=O)COc1ccc2ccccc2c1 | MTT | 48 µg/mL
N#Cc1c(F)cccc1S(=O)(=O)c1cc(Cl)cc(Cl)c1 | - | >188 µM
Cc1ccnc2c1NC(=O)c1cccnc1N2C1CC1 | MTT | >2 µg/mL
O=C1C[C@@H](c2ccc(O)cc2)Oc2cc(O)cc(O)c21 | - | >200 µg/mL

For reference, 12 entries again:

smiles	read by	value
Cc1c(Cc2cccc3ccccc23)nc(NCc2ccccc2)[nH]c1=O	MTT	35.03 µM
Nc1ncnc2c1ncn2C=C=CCO	-	>200 µM
CC(C)Nc1cccnc1N1CCN(C(=O)c2ccc(-c3ccccc3)[nH]2)CC1	-	26 µM
Cc1cc(Cl)cc(S(=O)(=O)c2cccc(N)c2C#N)c1	-	133 µM
O=C(N[C@@H](Cc1ccccc1)C[C@H](O)[C@H](Cc1ccccc1)NC(=O)OCc1ccccc1)OCc1ccccc1	-	>100 µM
O=C(/C=C/c1cn([C@H]2C=C[C@@H](CO)O2)c(=O)[nH]c1=O)NCCCCCCNC(=O)C(F)(F)F	-	>100 µM
Nc1nc(N)c2ncn([C@H]3CC[C@@H](CO)O3)c2n1	-	170.5 µM
COc1ncnc2c1ncn2[C@H]1CC[C@@H](CO)O1	-	179.2 µM
Cc1cn([C@H]2C[C@H](N=[N+]=[N-])[C@@H](CO)O2)c(=O)[nH]c1=O	-	>10 µM
O=[N+]([O-])c1ccccc1S(=O)(=O)c1ccccc1	-	>200 µM
COC(=O)[C@H](C)NC(=O)CNC(=O)COc1ccc2ccccc2c1	MTT	59 µg/mL
CC(C)c1nc(CN(C)C(=O)N[C@H](C(=O)N[C@@H](Cc2ccccc2)C[C@H](O)[C@H](Cc2ccccc2)NC(=O)OCc2cncs2)C(C)C)cs1	-	441.6 µg/mL